Pooled drug test results. Numbers come from NIAID ChemDB, via PubChem.

Shared fields: growth or infection tests; organism: Cryptococcus neoformans

Lines come from different laboratories, so protocols vary. A number after MIC or MFC names an inhibition level or a share of isolates. Blank or dashed fields: not listed here.

CC(C)C(=N)CCC[C@H]1CO[C@@](Cn2ccnc2)(c2ccc(F)cc2F)C1 ; endpoint: MIC ; strain or isolate: B42419 ; result: 100 µg/mL
COc1cc(NS(=O)(=O)c2ccc(N)cc2)nc(OC)n1 ; endpoint: MIC ; strain or isolate: IFM 49722 ; result: ≥256 µg/mL
CN(C)CCN(C)C(=O)c1ccc(-c2ccc(-c3ccc(C(=O)N(C)CCN(C)C)cc3)o2)cc1 ; endpoint: MIC80 ; strain or isolate: H99 ; result: >110 µg/mL
CC(C)C(=N)CCC[C@H]1CO[C@@](Cn2cccc2)(c2ccc(F)cc2F)C1 ; endpoint: MIC ; strain or isolate: B42419 ; result: 25 µg/mL
O=C(/C=C/c1cccc([N+](=O)[O-])c1)OC1CCN(CC(O)(Cn2cncn2)c2ccc(F)cc2F)CC1 ; endpoint: MIC80 ; strain or isolate: BLS108 ; method: broth dilution ; result: 0.122 µM
NC(=S)N/N=C(\N)c1ccccn1 ; endpoint: MIC100 ; strain or isolate: ATCC 24067D2 ; result: 52.53 µM
C=C1CO[C@H]2[C@@H](C)OC(OC[C@@]34C[C@H]5[C@H](C)CC[C@@H]5[C@@]5(C=O)C[C@@H]3C=C(C(C)C)[C@@]45C(=O)O)C[C@@H]12 ; endpoint: MIC50 ; strain or isolate: 16 strains (serotype D) ; result: 0.5 µg/mL
Cn1nc(Cc2ccc(Cl)cc2)c2ccccc2c1=O ; endpoint: MFC ; strain or isolate: Clinical isolate (IM 983040) ; method: broth dilution ; result: 7.8 µg/mL
COc1ccc(Cc2nc(N)[nH]c2Cc2ccc(OC)cc2)cc1 ; endpoint: MIC ; result: 6.25 µg/mL
Cc1ccc(-c2c3c(N)c4c(nc3nc3c2c(C)nn3-c2ccccc2)CCCCC4)cc1 ; endpoint: MIC80 ; strain or isolate: ATCC 32264 ; method: broth dilution / absorbance ; result: 125 µg/mL
O=C(OC1CCN(CC(O)(Cn2cncn2)c2ccc(F)cc2F)CC1)C(F)(F)Cl ; endpoint: MIC80 ; strain or isolate: BLS108 ; method: broth dilution ; result: 35.5 µM
N=C(N)c1ccc(OCCCCCCOc2ccc(C(=N)N)cc2)cc1 ; endpoint: MFC ; strain or isolate: H99 ; result: 12.5 µg/mL
C[C@@H](c1ncncc1F)[C@](O)(Cn1cncn1)c1ccc(F)cc1F ; endpoint: MIC ; strain or isolate: Clinical isolate (IM 000319) ; method: broth dilution ; result: <0.015 µg/mL
Cc1nn(-c2ccccc2)c2nc3nc4c(c(N)c3c(-c3ccc(Cl)cc3)c12)CCCCC4 ; endpoint: MIC80 ; strain or isolate: ATCC 32264 ; method: broth dilution / absorbance ; result: 125 µg/mL
O=C(/C=C/c1ccc(Cl)cc1)OC1CCN(CC(O)(Cn2cncn2)c2ccc(F)cc2F)CC1 ; endpoint: MIC80 ; strain or isolate: BLS108 ; method: broth dilution ; result: 0.498 µM
Nc1[nH]c(=O)ncc1F ; endpoint: MIC90 ; strain or isolate: 37 strains ; result: ≥16 µg/mL
Cc1noc(NS(=O)(=O)c2ccc(N)cc2)c1C ; endpoint: MIC ; strain or isolate: IFM 49624 ; result: 64 µg/mL
CC(C)(C)C(=O)OC1CCN(CC(O)(Cn2cncn2)c2ccc(F)cc2F)CC1 ; endpoint: MIC80 ; strain or isolate: BLS108 ; method: broth dilution ; result: 0.592 µM
NC(=NC1CCCC1)c1ccc(-c2ccc(-c3ccc(C(N)=NC4CCCC4)cc3)o2)cc1 ; endpoint: MFC ; strain or isolate: H99 ; result: 6.25 µg/mL
COc1ccc(N2CCN(CCc3nnnn3CC(O)(Cn3cncn3)c3ccc(F)cc3F)CC2)cc1 ; endpoint: MIC ; strain or isolate: LA314 ; result: >16 µg/mL
CN(C)CCNC(=O)c1ccc(-c2ccc(-c3ccc(C(=O)NCCN(C)C)cc3)o2)cc1 ; endpoint: MIC80 ; strain or isolate: H99 ; result: >100 µg/mL
COc1ccc(Cc2nc(N=C3NC(=O)N(C)C3=O)n(C)c2Cc2ccc(OC)c(O)c2)cc1 ; endpoint: MIC ; result: 6.25 µg/mL
C[C@H](n1nnnc1CCN1CCN(C(c2ccccc2)c2ccccc2)CC1)[C@](O)(Cn1cncn1)c1ccc(F)cc1F ; endpoint: MIC ; strain or isolate: LA314 ; result: >16 µg/mL
CC(C)C(=O)CCC[C@@H]1CO[C@@](Cn2cccc2)(c2ccc(F)cc2F)C1 ; endpoint: MIC ; strain or isolate: A.34144 ; result: >100 µg/mL
Cc1nnc(NS(=O)(=O)c2ccc(N)cc2)s1 ; endpoint: MIC ; strain or isolate: IFM 49722 ; result: ≥256 µg/mL
C[C@@H]1CCC2(OC1)OC1CC3C4C[C@H](OC5O[C@@H](CO)[C@H](O)[C@@H](O)[C@@H]5O)[C@H]5C[C@@H](OC6O[C@H](CO)[C@@H](O)[C@H](O)[C@H]6O)CC[C@]5(C)C4CC[C@]3(C)C1[C@@H]2C ; endpoint: MIC ; strain or isolate: ATCC 90113 ; result: 20 µg/mL
Cc1nn(-c2ccccc2)c2nc3nc4c(c(N)c3c(-c3ccc(Cl)cc3)c12)CCC4 ; endpoint: MIC100 ; strain or isolate: ATCC 32264 ; method: broth dilution / absorbance ; result: >250 µg/mL
Cc1cc(NS(=O)(=O)c2ccc(N)cc2)no1 ; endpoint: MIC ; strain or isolate: IFM 49624 ; result: 32 µg/mL
O[C@](Cn1cncn1)(Cn1cnc(/C=C/c2ccc(OCC(F)(F)C(F)F)cc2)n1)c1ccc(F)cc1F ; endpoint: MIC ; strain or isolate: TIMM0354 ; result: 0.78 µg/mL
COc1ccc(-c2c3c(N)c4c(nc3nc3c2c(C)nn3-c2ccccc2)CCCC4)cc1 ; endpoint: MIC100 ; strain or isolate: ATCC 32264 ; method: broth dilution / absorbance ; result: 250 µg/mL
N=C(N)c1ccc(OCCCC(O)COc2ccc(C(=N)N)cc2)cc1 ; endpoint: MIC80 ; strain or isolate: 133.95 ; result: 0.39 µg/mL
CCCCCOc1ccc(-c2cc(-c3ccc(C(=O)N[C@H]4C[C@@H](O)[C@@H](O)NC(=O)[C@@H]5[C@@H](O)[C@@H](C)CN5C(=O)[C@H]([C@H](O)CC(N)=O)NC(=O)[C@H]([C@H](O)[C@@H](O)c5ccc(O)c(OS(=O)(=O)O)c5)NC(=O)[C@@H]5C[C@@H](O)CN5C(=O)[C@H]([C@@H](C)O)NC4=O)cc3)no2)cc1 ; endpoint: MIC ; strain or isolate: FMR 8420 ; result: 64 µg/mL
CC(C)C(=N)CCC[C@H]1CO[C@@](Cn2cncn2)(c2ccc(F)cc2F)C1 ; endpoint: MIC ; strain or isolate: A.34144 ; result: 100 µg/mL
CCC(C)n1ncn(-c2ccc(N3CCN(c4ccc(OC[C@H]5CO[C@](Cn6cncn6)(c6ccc(Cl)cc6Cl)O5)cc4)CC3)cc2)c1=O ; endpoint: MIC80 ; strain or isolate: BLS108 ; method: broth dilution ; result: 0.354 µM
COc1ccc(N2CCN(CCc3nnn([C@@H](C)[C@](O)(Cn4cncn4)c4ccc(F)cc4F)n3)CC2)cc1 ; endpoint: MIC ; strain or isolate: LA314 ; result: >16 µg/mL
CC(C)N=C(N)c1ccc2nc(-c3ccc(CCc4ccc(-c5nc6ccc(C(N)=NC(C)C)cc6[nH]5)cc4)cc3)[nH]c2c1 ; endpoint: MFC ; strain or isolate: 119.95 ; result: 0.39 µg/mL
O=[N+]([O-])c1ccc(N2CCN(CCc3nnn(CC(O)(Cn4cncn4)c4ccc(F)cc4F)n3)CC2)cc1 ; endpoint: MIC ; strain or isolate: LA314 ; result: 8 µg/mL
CCCCCCCCCCC(=O)OC1CCN(CC(O)(Cn2cncn2)c2ccc(F)cc2F)CC1 ; endpoint: MIC80 ; strain or isolate: BLS108 ; method: broth dilution ; result: 0.508 µM

For reference, 3 entries again:

SMILES	endpoint	strain or isolate	method	result
C[C@@H]1CCC2(OC1)OC1CC3C4C[C@H](OC5O[C@@H](CO)[C@H](O)[C@@H](O)[C@@H]5O)[C@H]5C[C@@H](OC6O[C@H](CO)[C@@H](O)[C@H](O)[C@H]6O)CC[C@]5(C)C4CC[C@]3(C)C1[C@@H]2C	MIC	ATCC 90113		20 µg/mL
CC(C)C(=O)CCC[C@@H]1CO[C@@](Cn2cccc2)(c2ccc(F)cc2F)C1	MIC	A.34144		>100 µg/mL
COc1ccc(N2CCN(CCc3nnn([C@@H](C)[C@](O)(Cn4cncn4)c4ccc(F)cc4F)n3)CC2)cc1	MIC	LA314		>16 µg/mL